Compound potency records, mixed from different reports. Data source: NIAID ChemDB in PubChem.

Common to all: tests in culture; organism: Plasmodium falciparum; read-out: EC50

ECn is the concentration giving n% inhibition of infection, replication or growth. An empty or dashed field is not shown. Neighbouring rows are from separate reports.

structure,strain or isolate,mutations,method,value
COc1ccc(/C=C/C(=O)c2ccc(-n3cccc3)cc2)cc1OC,,,,6.28 µg/mL
N=C(N)c1ccc(OCCCCCOc2ccc(C(=N)N)cc2[N+](=O)[O-])c([N+](=O)[O-])c1,D6,,hypoxanthine uptake,0.124 µM
Cc1cn([C@@H]2C[C@H](O)[C@@H](CNS(=O)(=O)c3ccc([N+](=O)[O-])cc3)O2)c(=O)[nH]c1=O,,,SYBR Green,>100 µM
COc1ccc(/C=C/C(=O)c2ccc(N3CCOCC3)cc2)cc1OC,,,,5.16 µg/mL
N=C(N)c1ccc(OCCCCCOc2ccc(C(=N)N)cc2Br)c(Br)c1,D6,,hypoxanthine uptake,0.181 µM
O=C(/C=C/C=C/c1ccc2c(c1)OCO2)c1ccc(F)cc1,INDO,,SYBR Green / fluorescence,29 µM
CCOC(=O)N/N=C(/OCC)C(O)(CC)c1ccc(Cl)c(Cl)c1,3D7,,hypoxanthine uptake / radiometric,2.9 µM
CCCCCCCCCCCC(=O)NC(CCCC[NH3+])C(=O)NC(CCCC[NH3+])C(=O)NCCCCCCCC(=O)NC(CCCC[NH3+])C(=O)NC(CCCC[NH3+])C(=O)NCCCCCCCC(=O)NC(CCCC[NH3+])C(N)=O,NF54,,hypoxanthine uptake,8.9 µM
CCN(CC)CCCC(C)Nc1ccnc2cc(Cl)ccc12,RKL9,Chloroquine-resistant,microscopy,0.192 µM
CC(=O)OC[C@@]12C(CC(C)(C)[C@@H](OC(=O)CC(C)C)[C@@H]1O)C1=CCC3[C@@]4(C)CC[C@H](O[C@@H]5O[C@H](C(=O)O)[C@@H](O)[C@H](O[C@@H]6OC[C@H](O)[C@H](O[C@@H]7OC[C@H](O)[C@H](O)[C@H]7O)[C@H]6O)[C@H]5O[C@@H]5O[C@H](CO)[C@H](O)[C@H](O)[C@H]5O)[C@@](C)(C=O)C4CC[C@@]3(C)[C@]1(C)C[C@H]2O,GHA,,,>64 µM
CCOC(=O)N/N=C(/OC)C(C)(O)c1ccc2ccccc2c1,3D7,,hypoxanthine uptake / radiometric,1.1 µM
CCCCCCCCCCCC(=O)NC(CCCC[NH3+])C(=O)NCCCCCCCC(=O)NC(CCCC[NH3+])C(=O)NCCCCCCCC(=O)NC(CCCC[NH3+])C(=O)NCCCCCCCC(=O)NC(CCCC[NH3+])C(=O)NCCCCCCCC(=O)NC(CCCC[NH3+])C(=O)NCCCCCCCC(=O)NC(CCCC[NH3+])C(N)=O,FCR3,,hypoxanthine uptake,5.6 µM
Clc1cccc(CC[C@H]2C[C@H]3CC[C@H]4C[C@@H](CCc5cccc(Cl)c5)NC(=N2)N34)c1,W2,,LDH,7.71 µM
N=C(N)c1ccc(NCCCNc2ccc(C(=N)N)cc2[N+](=O)[O-])c([N+](=O)[O-])c1,W2,,hypoxanthine uptake,0.162 µM
C#[N+][C@@H]1C2C([C@@]3(C)CCC(C(C)(C)Cl)O3)CC[C@](C)([N+]#C)C2CC[C@@]1(C)O,Dd2,,SYBR Green,0.0046 µM
N=C(N)c1cccc(OCCCCOc2cccc(C(=N)N)c2)c1,D6,,hypoxanthine uptake,0.11 µM
CCN(CC)CCCC(C)Nc1ccnc2cc(Cl)ccc12,NF54 chloroquine-sensitive,,,0.02 µM
CC1(C)C2CC[C@@]3(C)C4c5ccccc5N(C(=O)O)C4CC3[C@@]2(C)CC[C@H]1O,NF54,,hypoxanthine uptake / radiometric,29.1 µM
C[C@H]1CCc2c([nH]c3ccccc23)[C@@]2(N1)C(=O)Nc1ccc(Cl)cc12,GNF-Pf4492R-3,GNF-Pf4492-resistant A187V,SYBR Green / fluorescence,0.14 µM
Cc1cccc(CC[C@H]2C[C@H]3CC[C@H]4C[C@@H](CCc5cccc(C)c5)NC(=N2)N34)c1,D6,,LDH,4.23 µM
CCO/C(=N/NC(=O)NC)C(C)(O)c1ccc(Cl)c(Cl)c1,3D7,,hypoxanthine uptake / radiometric,0.85 µM
O=C(/C=C/C=C/c1ccc2c(c1)OCO2)c1ccc(Cl)c(Cl)c1,Dd2,,SYBR Green / fluorescence,100 µM
COc1ccc(OC)c(/C=C/C(=O)c2ccc(N3CCCCC3)cc2)c1,,,,6.13 µg/mL
CN(Cc1ccccc1)Cc1ccc(CNc2ccnc3cc(Cl)ccc23)cc1,Dd2,,,0.026 µM
COc1ccc(/C=C/C(=O)c2ccc(N3CCCCC3)cc2)c(OC)c1,,,,7.68 µg/mL
CCCCC1CC2CCCC3CC(C)NC(=N1)N23,D6,,LDH,3.21 µM
CCc1nc2nc(C)cc(Nc3ccc(Cl)cc3)n2n1,3D7,,,3.3 µM
CCN(CC)CCCC(C)Nc1ccnc2cc(Cl)ccc12,3D7,,radiometric,0.03 µM
CCN(CC)CCCC(C)Nc1ccnc2cc(Cl)ccc12,KAE609R-1,KAE609-resistant pfatp4 I398F/P990R/D1247Y,SYBR Green / fluorescence,0.0123 µM
O=C(NCCN1CCOCC1)c1sc(-c2ccccc2)nc1-c1ccccc1,K1,,,>10 µg/mL
O=C(/C=C/C=C/c1ccc2c(c1)OCO2)c1ccc(Br)cc1,Dd2,,SYBR Green / fluorescence,74 µM
CCCCCC(=O)NCCCCCC(=O)NC(CCCC[NH3+])C(=O)CCCCCC(=O)NCCCCCC(=O)NC(CCCC[NH3+])C(N)=O,NF54,,hypoxanthine uptake,>10 µM
CC(=O)O[C@H]1[C@H](OC(=O)CC(C)C)C(C)(C)CC2C3=CCC4[C@@]5(C)CC[C@H](O[C@@H]6O[C@H](C(=O)O)[C@@H](O)[C@H](O[C@@H]7O[C@H](CO)[C@H](O)[C@H](O[C@@H]8OC[C@H](O)[C@H](O)[C@H]8O)[C@H]7O)[C@H]6O[C@@H]6O[C@H](CO)[C@H](O)[C@H](O)[C@H]6O)C(C)(C)C5CC[C@@]4(C)[C@]3(C)C[C@@H](O)[C@]21CO,GHA,,,>32 µM
CC(C)n1c2c(c3ccccc31)C(=O)c1ccc3ccccc3c1C2=O,FRC-3,,broth dilution,0.64 µM
CCN(CC)CCNC(=O)c1sc(-c2ccc(OC)cc2)nc1-c1ccccc1,3D7,,,>19.3 µg/mL
Cc1cccc(CC[C@H]2C[C@H]3CCC[C@H]4C[C@@H](CCc5cccc(C)c5)NC(=N2)N34)c1,D6,,LDH,1.37 µM
COc1ccc(/C=C/C=C/C(=O)c2ccc(Cl)cc2)cc1OC,INDO,,SYBR Green / fluorescence,26 µM
COc1cc(C2=NCCN2)ccc1OCCCCOc1ccc(C2=NCCN2)cc1OC,W2,,hypoxanthine uptake,0.387 µM
CCOC(=O)N/N=C(/OCC)C(C)(O)c1ccc2ccccc2c1,3D7,,hypoxanthine uptake / radiometric,2 µM
CN1CCC(NC2=CCC3=NC=C(c4cnn(-c5ncccc5F)c4)[N+]3=N2)CC1,,,,1.28 µM
CCN(CC)CCCC(C)Nc1ccnc2cc(Cl)ccc12,NF54,,,0.006 µM
CC(C)=CCC[C@@H]1C[C@@H]2CC[C@@H]3C[C@H](CCC=C(C)C)NC(=N1)N32,D6,,LDH,7.29 µM
COc1ccc(/C=C/C(=O)c2ccc(N3CCCCC3)cc2)cc1,,,,6.92 µg/mL
COc1cc(OC)c(OC)cc1/C=C/C(=O)c1ccc(Cl)cc1,INDO,,SYBR Green / fluorescence,10 µM
CCO/C(=N/NC(=O)NC)C(C)(O)c1ccc2ccccc2c1,3D7,,hypoxanthine uptake / radiometric,6.2 µM
O=C(CCc1ccccc1)c1ccccc1OCC(O)CN1CCN(c2ccccc2)CC1,3D7,,,0.09 µM
OCCN1CCN(C(c2ccccc2)c2ccccc2)CC1,7G8,,SYBR Green / fluorescence,>2.5 µM
CN(Cc1ccc(Cl)cc1)Cc1ccc(CNc2ccnc3cc(Cl)ccc23)cc1,K1,,,>1 µM
NC(=O)C(CCC[NH3+])NC(=O)CCCCCCCCCCCNC(=O)C(CCCC[NH3+])NC(=O)CCCCCCCCCCCNC(=O)C(CCCC[NH3+])NC(=O)CCCCCCCCCCCNC(=O)C(N)CCCC[NH3+],FCR3,,hypoxanthine uptake,1.6 µM
COc1ccc(/C=C/C(=O)c2ccc(-n3nnc4ccccc43)cc2)c(OC)c1,,,,7.22 µg/mL
N=C(N)c1ccc(NCCCNc2ccc(C(=N)N)cc2)cc1,D6,,hypoxanthine uptake,0.04 µM
COc1ccc(/C=C/C=C/C(=O)c2ccc(Cl)cc2)cc1,3D7,,SYBR Green / fluorescence,88 µM
N=C(N)c1ccc(OCCCCOc2ccc(C(=N)N)cc2Cl)c(Cl)c1,D6,,hypoxanthine uptake,0.144 µM
CCCCCC(CCCCCC=O)NC(CCCC[NH3+])C(=O)NC(CCCC[NH3+])C(=O)NCCCCCCCCCCCC(=O)NC(CCCC[NH3+])C(=O)NC(C=O)CCCC[NH3+],NF54,,hypoxanthine uptake,>10 µM
CCCO/C(=N/NC(=O)OCC)C(C)(O)c1ccc2ccccc2c1,3D7,,hypoxanthine uptake / radiometric,0.6 µM
N=C(N)c1ccc(OCCCCOc2ccc(C(=N)N)cc2)cc1,W2,,hypoxanthine uptake,0.26 µM
CC(=O)OC[C@@]12C(CC(C)(C)[C@@H](OC(=O)CC(C)C)[C@@H]1O)C1=CCC3[C@@]4(C)CC[C@H](O[C@@H]5O[C@H](C(=O)O)[C@@H](O)[C@H](O[C@@H]6O[C@H](CO)[C@H](O)[C@H](O[C@@H]7OC[C@H](O)[C@H](O)[C@H]7O)[C@H]6O)[C@H]5O[C@@H]5O[C@H](CO)[C@H](O)[C@H](O)[C@H]5O)[C@@](C)(C=O)C4CC[C@@]3(C)[C@]1(C)C[C@H]2O,GHA,,,>64 µM
NC(=O)C(CCCC[NH3+])NC(=O)CCCCCCCCCCCNC(=O)C(CCCC[NH3+])NC(=O)CCCCCCCCCCCNC(=O)C(N)CCCC[NH3+],FCR3,,hypoxanthine uptake,15 µM

Repeating the final 5 entries:

structure	strain or isolate	mutations	method	value
CCCCCC(CCCCCC=O)NC(CCCC[NH3+])C(=O)NC(CCCC[NH3+])C(=O)NCCCCCCCCCCCC(=O)NC(CCCC[NH3+])C(=O)NC(C=O)CCCC[NH3+]	NF54		hypoxanthine uptake	>10 µM
CCCO/C(=N/NC(=O)OCC)C(C)(O)c1ccc2ccccc2c1	3D7		hypoxanthine uptake / radiometric	0.6 µM
N=C(N)c1ccc(OCCCCOc2ccc(C(=N)N)cc2)cc1	W2		hypoxanthine uptake	0.26 µM
CC(=O)OC[C@@]12C(CC(C)(C)[C@@H](OC(=O)CC(C)C)[C@@H]1O)C1=CCC3[C@@]4(C)CC[C@H](O[C@@H]5O[C@H](C(=O)O)[C@@H](O)[C@H](O[C@@H]6O[C@H](CO)[C@H](O)[C@H](O[C@@H]7OC[C@H](O)[C@H](O)[C@H]7O)[C@H]6O)[C@H]5O[C@@H]5O[C@H](CO)[C@H](O)[C@H](O)[C@H]5O)[C@@](C)(C=O)C4CC[C@@]3(C)[C@]1(C)C[C@H]2O	GHA			>64 µM
NC(=O)C(CCCC[NH3+])NC(=O)CCCCCCCCCCCNC(=O)C(CCCC[NH3+])NC(=O)CCCCCCCCCCCNC(=O)C(N)CCCC[NH3+]	FCR3		hypoxanthine uptake	15 µM